PubChem BioAssay AID504761 | Drosophila RNAi Screening Center | 2011
The screen tested about 22,000 reagents; below is a random part of those with a known target gene and a result. Of all reagents, 116 (0.52%) got an active call. 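Calls depend on retest data that are not deposited; infection was ranked per plate without normalising between plates; the unit of the infection score is not given.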 The raw values are shown without normalisation. Unmarked entries are inactive. The numbers tell different reagents against one gene apart. The record does not give: the amount of reagent, the time to read-out.

Assay: 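Genome-wide fly cell screen for genes dengue virus requires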 (primary screen)
System: D.Mel-2 cells from Drosophila
Reagent: long dsRNA against Drosophila genes
Treatment: infection with dengue virus type 2; dose and infection time not stated
Measured: 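Per well on two replicate plates, imaging gave the percent of cells positive for viral envelope protein, ranked by infection, and a nuclear count of cells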
Scale: infection score: higher = more virus-infected cells; cell count: higher = more cells in the well
Hit rule: 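Low infection ranks in the two replicates (chance level up to 0.065) followed by a retest with a 1.5-fold or larger significant decrease, p below 0.05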
Calls: active = confirmed: knock-down lowers infection; inactive = not picked or not confirmed

The first 7 records as a preview:
| target gene | dsRNA no. | infection score, replicate 1 | infection score, replicate 2 | cell count, replicate 1 | cell count, replicate 2 |
| --- | --- | --- | --- | --- | --- |
| CG34050 (retired record) | 1 | 14.2 | 11.4 | 4029 | 4688 |
| CG34050 (retired record) | 2 | 14 | 1.48 | 5684 | 6354 |
| ft | 1 | 4.87 | 5.88 | 6306 | 5494 |
| eIF3c | 1 | 9.67 | 10.5 | 3010 | 1894 |
| Crtc | 1 | 0.96 | 1.55 | 6447 | 6834 |
| Crtc | 2 | 7.42 | 2.03 | 5608 | 6068 |
| CG13216 | 1 | 4.35 | 10.9 | 6961 | 6075 |

The list itself, from the start:
| target gene | dsRNA no. | infection score, replicate 1 | infection score, replicate 2 | cell count, replicate 1 | cell count, replicate 2 |
| --- | --- | --- | --- | --- | --- |
| CG34050 (retired record) | 1 | 14.2 | 11.4 | 4029 | 4688 |
| CG34050 (retired record) | 2 | 14 | 1.48 | 5684 | 6354 |
| ft | 1 | 4.87 | 5.88 | 6306 | 5494 |
| eIF3c | 1 | 9.67 | 10.5 | 3010 | 1894 |
| Crtc | 1 | 0.96 | 1.55 | 6447 | 6834 |
| Crtc | 2 | 7.42 | 2.03 | 5608 | 6068 |
| CG13216 | 1 | 4.35 | 10.9 | 6961 | 6075 |
| CG13622 | 1 | 1.57 | 6.22 | 6741 | 6299 |
| CG13622 | 2 | 13.1 | 1.32 | 5944 | 6731 |
| Spase25 | 1 | 1.88 | 0.39 | 7109 | 6127 |
| pim | 1 | 14.6 | 4.15 | 6131 | 5873 |
| Rs1 | 1 | 7.34 | 5.34 | 6211 | 6335 |
| Rs1 | 2 | 5.25 | 4.53 | 6171 | 5742 |
| CG46298 | 1 | 2.6 | 12.2 | 6189 | 5030 |
| CG46298 | 2 | 2.94 | 5.06 | 6879 | 6263 |
| Cyp4e2 | 1 | 7.49 | 8.06 | 6062 | 6244 |
| CG2889 | 1 | 4.85 | 4.08 | 3777 | 5584 |
| CG31550 | 1 | 10.7 | 20.5 | 6800 | 6095 |
| CG31550 | 2 | 12.1 | 15.8 | 6441 | 5932 |
| CG31550 | 3 | 15.4 | 1 | 5413 | 701 |
| lt | 1 | 5.27 | 10.6 | 6150 | 6144 |
| XNP | 1 | 2.3 | 1.65 | 6491 | 6305 |
| XNP | 2 | 19.3 | 29.1 | 5150 | 4689 |
| CG7298 | 1 | 5.62 | 6.65 | 6943 | 6453 |
| Bacc | 1 | 3.19 | 13.1 | 6121 | 6280 |
| CG4613 | 1 | 1.31 | 1.81 | 6109 | 6288 |
| CG4613 | 2 | 8.58 | 13.4 | 6176 | 6870 |
| RPA2 | 1 | 21.3 | 38.6 | 5146 | 4478 |
| RPA2 | 2 | 22.7 | 4.31 | 4168 | 5293 |
| nompA | 1 | – | – | 365 | 429 |
| Rab27 | 1 | 6.4 | 1.67 | 2095 | 6242 |
| SkpC | 1 | 6.91 | 2.08 | 5167 | 5720 |
| SkpC | 2 | 12.6 | 6.19 | 5688 | 6558 |
| CG13053 | 1 | 0.64 | 2.24 | 6444 | 5933 |
| Alk | 1 | 3.3 | 31.6 | 6552 | 4948 |
| Alk | 2 | 1.41 | 8.79 | 6894 | 6925 |
| CG4363 | 1 | 7.4 | 5.46 | 6680 | 6992 |
| mmd | 1 | 2.29 | 0.81 | 6255 | 6583 |
| mmd | 2 | 9 | 2.73 | 6235 | 6861 |
| mmd | 3 | 4.11 | 3.76 | 5937 | 6189 |
| CG12507 | 1 | 3.66 | 8.12 | 6482 | 6007 |
| hmw | 1 | 2.02 | 4.34 | 6124 | 6135 |
| CG14515 | 1 | 6.58 | 5.32 | 6702 | 6482 |
| CG9302 | 1 | 4.39 | 1 | 6557 | 6473 |
| AstC-R1 | 1 | 8.15 | 2.5 | 6635 | 6475 |
| AstC-R1 | 2 | 9.28 | 16.9 | 2469 | 5767 |
| phol | 1 | 10.3 | 8.48 | 6239 | 5812 |
| phol | 2 | 5.52 | 6.19 | 6118 | 5817 |
| CASK | 1 | 3.69 | 7.74 | 6318 | 6495 |
| CASK | 2 | 7.63 | 4.83 | 6515 | 6462 |
| CASK | 3 | 5.22 | 0.84 | 6155 | 6644 |
| CASK | 4 | 14.5 | 21.9 | 4389 | 5170 |
| CASK | 5 | 4.47 | 11.8 | 2193 | 5624 |
| CG4287 | 1 | 20.5 | 8.45 | 5571 | 6062 |
| CG4287 | 2 | 9.62 | 3.56 | 5499 | 5985 |
| CG14052 | 1 | 1.87 | 4.26 | 6859 | 5515 |
| CG14052 | 2 | 2.43 | 5.15 | 6667 | 815 |
| CG14052 | 3 | 1.69 | 5.06 | 6046 | 5971 |
| CG3156 | 1 | 7.31 | 33.7 | 6331 | 6923 |
| CG3156 | 2 | 25.6 | 19.4 | 5771 | 2109 |
| CG14204 | 1 | 4.68 | 1.59 | 6369 | 6153 |
| CG14204 | 2 | 9.2 | 1.91 | 5563 | 6189 |
| S-Lap5 | 1 | 17.8 | 7.98 | 6243 | 5641 |
| S-Lap5 | 2 | 2.96 | 2.79 | 6964 | 6630 |
| CG8654 | 1 | – | – | 333 | 373 |
| TrpRS-m | 1 | 10.5 | 30.4 | 4719 | 3630 |
| HisCl1 | 1 | 19.7 | 27.3 | 4642 | 5918 |
| TrxT | 1 | 0.91 | 1 | 6483 | 7218 |
| CG17224 | 1 | 1.79 | 6.46 | 6481 | 6530 |
| CG31875 | 1 | 5.64 | 4.65 | 6701 | 7014 |
| CG13983 | 1 | 6.27 | 2.81 | 5387 | 6447 |
| CG13983 | 2 | 3.57 | 3.44 | 1177 | 494 |
| kni | 1 | 1.94 | 2.28 | 5862 | 6626 |
| kni | 2 | 35.4 | 24.4 | 5551 | 6063 |
